Results on seven substances are retold here after patent publication US20110064668A1, “J-superfamily conotoxin peptides” (published 2011).

What all share (experiment): cell-based or functional assay
In assay [1] the target is α3β4 subtype of rat neuronal nAChR (rat) (UniProt P04757).
The target in the next assay is Kv1.6 channel.
Assay [2] concerns the target α1β1εδ subtype of mouse muscle nAChR (mouse) (UniProt P04756).

By IC50 is commonly meant the concentration at which inhibition is half-maximal. Turning to pl14a[Y19A] (peptide), the IC50 amounted to 10.4 µM in assay [1] and 32.7 µM in the assay with Kv1.6 channel.

With pl14a[R12A] (peptide), the half-inhibitory concentration (IC50) in assay [1] is 3.21 µM; in assay [2], 355 nM; with Kv1.6 channel, 6.54 µM.

pl14a[P20A] (peptide): the IC50 in assay [1] stood at 0.71 µM; in assay [2], 240 nM; with Kv1.6 channel, 2.22 µM.

As to pl14a[L9A] (peptide), the IC50 was 1.36 µM in assay [1], 434 nM in assay [2] and 2.26 µM with Kv1.6 channel.

With pl14a[I15A] (peptide), the IC50 stood at 1.6 µM in assay [1], 175 nM in assay [2] and 45.5 µM in the assay with Kv1.6 channel.

In the case of pl14a[F21A] (peptide), the IC50 in assay [1] turned out to be 2.85 µM; in assay [2] it was 257 nM; in the assay with Kv1.6 channel, 2.41 µM.

As to pl14a[H17A] (peptide), the figures for the concentration for half-maximal inhibition (IC50) (in assay [1]; in assay [2]; with Kv1.6 channel) were 3.92 µM, 228 nM and 4.6 µM, respectively.
